# In US20060275317A1, “Vaccine compositions for prevention of chronic and infectious diseases” (Biokit S.A., priority 2003, published 2006):
# Experiments:
# human lysozyme = assay: Lysozyme inhibition assay of GST-Tp17 mutants; type: biochemical; conditions: 2 units human lysozyme; 45 min 37° C
# lysozyme = target: T1, lysozyme (Homo sapiens, UniProt P61626); assay: Lysozyme binding of GST-Tp17 mutants (blot, FIG. 36)
# T1 sequence (P61626 19-148): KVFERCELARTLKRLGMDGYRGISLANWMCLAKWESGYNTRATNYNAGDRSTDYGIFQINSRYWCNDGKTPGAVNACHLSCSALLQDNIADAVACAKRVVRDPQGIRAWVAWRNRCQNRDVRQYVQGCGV
molecule,measurement,setting,value
His104A (protein) MSPILGYWKIKGLVQPTRLLLEYLEEKYEEHLYERDEGDKWRDKKFELGLEFPNLPYYIDGDVKLTQSMAIIRYIADKHNMLGGCPKERAEISMLEGAVLDIRYGVSRIAYSKDFETLKVDFLSKLPEMLKMFEDRLCHKTYLNGDHVTHPDFMLYDALDVVLYMDPMCLDAFPKLVCFKKRIEAIPQIDKYLKSSKYIAWPLQGWQATFGGGDHPPKSDLVPRGSCVSCTTVCPHAGKAKAEKVECALKGGIFRGTLPAADCPGIDTTVTFNADGTAQKVELALEKKSAPSPLTYRGTWMVREDGIVELSLVSSEQSKAPAEKELYELIDSNSVRYMGAPGAGKPSKEMAPFYVLKKTKK,lysozyme inhibition relative to wild-type Tp17,human lysozyme,decrease in lysozyme inhibition
same,ability to bind lysozyme,lysozyme,retained their ability to bind lysozyme
